Anti-infective test results gathered from many reports (values: NIAID ChemDB through PubChem).

All rows: whole-cell or culture tests

MIC50, MIC90 and the like: level of inhibition, or share of isolates inhibited. Blank or dashed fields: not listed here. Zone: diameter of growth inhibition. Neighbouring rows are from separate reports. Percent inhibition refers to the dose given; in toxicity tests it is the harm to the cells.

structure | agent | strain or isolate | mutations | dose | measure | read by | result
Cc1ccc(S(=O)(=O)CNc2oc3[nH]c(=O)[nH]c(=O)c3c2-c2ccc(Cl)cc2)cc1 | Aspergillus oryzae |  |  | 50 µg/mL | zone | agar diffusion / agar | 14 mm
OO | Aspergillus terreus | UAB680 |  |  | MIC99 | agar | 2000 µM
NC(=S)NN=Cc1cccs1 | Aspergillus ochraceus | MCT 00435 |  |  | MIC | broth dilution | 125 µg/mL
CCCCCCCCCCCCOC(=O)[C@]1(O)C[C@@H](O)[C@@H](O)[C@H](OC(=O)/C=C/c2ccc(O)c(O)c2)C1 | Aspergillus parasiticus | UMIP 1142.76 |  |  | MIC80 | absorbance | 1500 µg/mL
O=C(NN=CC1C(c2ccccc2)=Nc2ccc(Cl)cc21)N1c2ccccc2C=Cc2ccccc21 | Aspergillus oryzae | MTCC-3567 |  | 500 µg/mL | zone | agar diffusion | 11 mm
Cc1ccc(-c2c(NCS(=O)(=O)c3ccc(C)cc3)oc3[nH]c(=O)[nH]c(=O)c23)cc1 | Aspergillus oryzae |  |  | 100 µg/mL | zone | agar diffusion / agar | 25 mm
Cc1ccc(C(C)C)c(O)c1 | Aspergillus fumigatus | F17 |  |  | MLC |  | 0.64 µg/mL
CCC(C)n1ncn(-c2ccc(N3CCN(c4ccc(OC[C@H]5CO[C@](Cn6cncn6)(c6ccc(Cl)cc6Cl)O5)cc4)CC3)cc2)c1=O | Aspergillus fumigatus | AF293 | sakA | 32 µg/mL | inhibition | broth dilution | 99.95%
CCCCCOc1ccc(-c2cc(-c3ccc(C(=O)N[C@H]4C[C@@H](O)[C@@H](O)NC(=O)[C@@H]5[C@@H](O)[C@@H](C)CN5C(=O)[C@H]([C@H](O)CC(N)=O)NC(=O)[C@H]([C@H](O)[C@@H](O)c5ccc(O)c(OS(=O)(=O)O)c5)NC(=O)[C@@H]5C[C@@H](O)CN5C(=O)[C@H]([C@@H](C)O)NC4=O)cc3)no2)cc1 | Aspergillus niger |  |  |  | MIC50 | broth dilution | 0.03 µg/mL
O=C(NN1C(=O)CSC1C1C(c2ccccc2)=Nc2ccc(Cl)cc21)N1c2ccccc2C=Cc2ccccc21 | Aspergillus terreus | MTCC-1782 |  | 500 µg/mL | zone | agar diffusion | 12 mm
Cc1ccc(S(=O)(=O)CNc2oc3[nH]c(=O)[nH]c(=O)c3c2-c2ccc(O)cc2)cc1 | Aspergillus oryzae |  |  | 50 µg/mL | zone | agar diffusion / agar | 13 mm
COc1cc(/C=C/C(C)=O)ccc1O | Aspergillus ochraceus |  |  | 200 µg/disc | zone | agar diffusion | 30 mm
Cc1ccc2c(c1)C(C=NNC(=O)N1c3ccccc3C=Cc3ccccc31)C(c1ccccc1)=N2 | Aspergillus terreus | MTCC-1782 |  | 1000 µg/mL | zone | agar diffusion | 10 mm
C[C@@H]1C/C=C/C=C/C=C/C=C/[C@H](OC2O[C@H](C)[C@@H](O)[C@H](N)[C@@H]2O)CC2O[C@](O)(C[C@@H](O)C[C@H]3O[C@@H]3/C=C/C(=O)O1)C[C@H](O)[C@H]2C(=O)O | Aspergillus versicolor | Species complex |  |  | MIC90 |  | 32 µg/mL
Nc1ncccc1-c1cc(Cc2ccc(COc3ccccn3)cc2)no1 | Aspergillus nidulans |  |  |  | MIC50 | broth dilution | 0.06 µg/mL
CCC(C)n1ncn(-c2ccc(N3CCN(c4ccc(OC[C@H]5CO[C@](Cn6cncn6)(c6ccc(Cl)cc6Cl)O5)cc4)CC3)cc2)c1=O | Aspergillus lentulus |  |  |  | MIC50 | broth dilution | 1 µg/mL
Cc1cccc(C=NNC(N)=S)n1 | Aspergillus parasiticus | MCT 00334 |  | 500 µg/mL | inhibition | broth dilution | 100%

2 of the rows above, restated:

structure	agent	strain or isolate	mutations	dose	measure	read by	result
CCCCCCCCCCCCOC(=O)[C@]1(O)C[C@@H](O)[C@@H](O)[C@H](OC(=O)/C=C/c2ccc(O)c(O)c2)C1	Aspergillus parasiticus	UMIP 1142.76			MIC80	absorbance	1500 µg/mL
CCC(C)n1ncn(-c2ccc(N3CCN(c4ccc(OC[C@H]5CO[C@](Cn6cncn6)(c6ccc(Cl)cc6Cl)O5)cc4)CC3)cc2)c1=O	Aspergillus lentulus				MIC50	broth dilution	1 µg/mL